Results on one molecule are retold here after paper PMC11322561 (Nature Communications, 2024).

A value given as a limit tells only on which side of the number the result lay.

In the assay the target is CD4 protein with His tag (CD4-His) (human). The assay can be described thus: BLI. Background: BLI is a label-free optical method that tracks binding on a fibre tip over time.

B1: Ibalizumab (antibody, V domains shown)
VH: QVQLQQSGPEVVKPGASVKMSCKASGYTFTSYVIHWVRQKPGQGLDWIGYINPYNDGTDYDEKFKGKATLTSDTSTSTAYMELSSLRSEDTAVYYCAREKDNYATGAWFAYWGQGTLVTVSS
VL: DIVMTQSPDSLAVSLGERVTMNCKSSQSLLYSTNQKNYLAWYQQKPGQSPKLLIYWASTRESGVPDRFSGSGSGTDFTLTISSVQAEDVAVYYCQQYYSYRTFGGGTKLEIK
By Kd is commonly meant the free concentration of one partner at which half of the binding sites on the other are occupied at equilibrium, for simple one-to-one binding. A lower Kd goes with higher affinity. B1 gave a Kd of less than 1 pM.
